Some of the results follow. Env chains of viruses from a treatment-interruption trial, translated from the printed DNA. IC50 / IC80 of two broadly neutralizing antibodies; lower = more sensitive virus; >50 µg/ml means not reached and <0.001 µg/ml is below the lowest dose. No active / inactive call. A value given as a limit tells only on which side of the number the result lay.

Results on three molecules are retold here after the supplement of paper PMC12637763.

B1: HIV-1 Env, rebound clone, antibody arm (protein)
chain: MTVKGIRRNWQHWWKWSTMLFGILMIYSTAEQLWVTVYYGVPVWKDATTTLFCASDAKAYDTEVHNVWATHACVPTDPNPQEVQLGNVTENFNMWKNNMVEQMQEDIISLWDEGLKPCVKLTPLCVTLNCTDTLNCTNKLENTTNNCNASVGEKSKGEIKNCSFYVTASMNDEKKKEHALFYSLDIAPIDKGNNKNNSTFTNYRLISCNTSVITQACPKVSFEPIPIHYCTPAGFAMLRCNDKKFNGTGPCKNVSTVQCTHGIRPVVSTQLLLNGSLAEEEVVIRSENFTNNAKTIIVQLNETVIINCTRPRYYTTRHRIHIGRGRTFYTAKNIAGTIRQAYCNLSRVDWNNTLKMVAEKLTEQFNKTIAFQPSSGGDPEIVMHSFNCGGEFFYCNTTQLFNSTWNGTQSSNADGNDTIKLPCKIKQFINRWQEVGKAMYAPPIEGLVNCSSRITGLLLTRDGGNNTINNTETFRPGGGDMRDNWRSELYKYKVVKVEPLGIAPTKARRRVVQREKRAVTLGALFLGFLGAAGSTMGAASMTLTVQARQLLSGIVQQQNNLLRAIEAQQHMLQLTVWGIKQLQARVLAVERYLHDQQLLGIWGCSGKLICTTAVPWNTSWSNKSLTDIWDNMTWMEWDREINNYTKLIYTLLEKSQNQQEKNEQELLELDKWANLWSWFDITNWLWYIKIFIMVVGGLIGLRIVFMILSIVNRVRQGYSPLSLQTRLPTPRGPDRPEGIEEGGGERDKDGSNRLVDGFLALIWDDLRSLCLFSYHRLRDLLLIVTRIVELLGRRGWEALKYWWNLLQYWGQELRQSAISLLNATAIAVAEGTDRIIEFIQRAGRAIIHIPRRIRQGFERALQ
B2: HIV-1 Env, rebound clone, antibody arm (protein)
chain: MTVKGIRRNWQHWWKWSTMLFGILMIYSTAEQLWVTVYYGVPVWKDATTTLFCASDAKAYDTEVHNVWATHACVPTDPNPQEVQLGNVTENFNMWKNNMVEQMQEDIISLWDEGLKPCVKLTPLCVTLNCTDTLNCTNKLENTTNNCNASVGEKSKGEIKNCSFYVTASMNDEKKKEHALFYSLDIAPIDKGNNKNNSTFTNYRLISCNTSVITQACPKVSFEPIPIHYCTPAGFAMLRCNDKKFNGTGPCKNVSTVQCTHGIRPVVSTQLLLNGSLAEEEVVIRSENFTNNAKTIIVQLNETVIINCTRPRYYTTRHRIHIGRGRTFYTAKNIAGTIRQAYCNLSRVDWNNTLKMVAEKLTEQFNKTIAFQPSSGGDPEIVMHSFNCGGEFFYCNTTQLFNSTWNGTQSSNADGNDTIKLPCKIKQFINRWQEVGKAMYAPPIEGLVNCSSRITGLLLTRDGGNNTTNNTETFRPGGGDMRDNWRSELYKYKVVKVEPLGIAPTKARRRVVQREKRAVTLGALFLGFLGAAGSTMGAASMTLTVQARQLLSGIVQQQNNLLRAIEAQQHMLQLTVWGIKQLQARVLAVERYLHDQQLLGIWGCSGKLICTTAVPWNTSWSNKSLTDIWDNMTWMEWDREINNYTKLIYTLLEKSQNQQEKNEQELLELDKWANLWSWFDITNWLWYIKIFIMVVGGLIGLRIVFMILSIVNRVRQGYSPLSLQTRLPTPRGPDRPEGIEEGGGEKDKDGSNRLVDGFLALIWDDLRSLCLFSYHRLRDLLLIVTRIVELLGRRGWEALKYWWNLLQYWGQELRQSAISLLNATAIAVAEGTDRIIEFIQRAGRAIIHIPRRIRQGFERALQ
B3: HIV-1 Env, rebound clone, antibody arm (protein)
chain: MKVRGMKRNYQHLWGWGTMLLFWMIIMCKAAGNLWVTVYYGVPVWRDAETTLFCASDAKAYDKEVHNVWATHACVPTDPNPQEVRLENVTENFNMWENNMVEQMQTDIISLWDQSLKPCVKLTPLCVTLECTEPKLNSSTSNNSLSSTSNNSQYEEMKNCSFNMTTELRDKQKKVYSLFYKLDIVETDNNSSRYRLINCNTSTLTQACPKVTFEPIPIYYCAPAGFAILKCNDPQFNGTGPCTNVSTVQCTHGIKPVVSTQLLLNGSLAKEQVMIRSKNITDNSKTIIVQLKKPVNITCIRPGNNTRTSIRIGPGQAFYATGEITGDIRKAHCNVSRAEWNRTLQEISTQLQGYFNNKTIIFKNSSGGDLEVTTHSFNCGGEFFYCNTTKLFNSTWYGNETVINGTEASENITLQCRIKQIINMWQRVGQAMYAPPIRGEIRCESNITGLLLTRDGGGGNSSNNETFRPTGGDMRDNWRSELYKYKVVQVEPIGIAPTPAKRRVVEREKRAVGLGAAFLGFLGAAGSTMGAASLTLTVQARQLLSGIVQQQSNLLRAIEAQQHLLKLTVWGIKQLQARVLAVERYLRDQQLLGIWGCSGKLICTTAVPWNSSWSNKSYKDIWDNMTWMQWDKEVLNYTSIIYSLLEESQNQQEKNEQDLLALDKWASLWSWFDISKWLWYIKIFIMIVGGLIGLRIVFTVLSIINRVRQGYSPLSLQTLTPHPEEPDRPGRINEEGGEQDKGRSIRLVNGFLALAWDDLRSLCLFSYHRLRDFISIAARTVELLGRSSLKGLRLGWEGLKYLRNLLGYWSRELKNSAINLIDTIAIAVAGWTDRVIEIVQGSCRAIRNIPRRIRQGAEKALQ

One assay concerns the target antibody 10-1074. The experiment in a line: neutralization IC50; higher = virus less sensitive to the antibody. Here is the method:
(§1)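 Pseudovirus bearing the Env chain mixed with antibody, from 50 µg/ml in fivefold dilutions, on TZM-bl reporter cells, in duplicate.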
For B1, the “neutralization IC50” value was greater than 50 mg/L.
The same measure, in the same setting: under B2 stands greater than 50 mg/L.
Same read-out and setting: under B3 stands 0.068 mg/L.

The target in another assay is antibody 3BNC117. The description is as above. The protocol:
as §1
For B1, the “neutralization IC50” value is 0.087 mg/L.
The same measure, in the same setting: under B2 stands 4.62 mg/L; under B3, 0.042 mg/L.

The next assay deals with antibody 10-1074. Put plainly: neutralization IC80; higher = virus less sensitive to the antibody. The protocol:
as §1
Consider B1, for which the “neutralization IC80” value is greater than 50 mg/L.
Still for that read-out and setting: the figure for B2 is greater than 50 mg/L; for B3 it is 0.456 mg/L.

A further assay has as its target antibody 3BNC117. The description is as above. Here is the method: as §1
Take B1: the “neutralization IC80” value amounted to 0.281 mg/L.
Still for that read-out and setting: the figure for B2 is greater than 50 mg/L; for B3 it is 0.133 mg/L.
